Anti-infective test results gathered from many reports (values: NIAID ChemDB through PubChem).

All rows: growth or infection tests; species: Candida krusei

a–b is a range or a potency band. Blank or dashed fields: not listed here. ECn is the concentration giving n% inhibition of infection, replication or growth. Conditions beyond the fields shown may differ between rows. MIC50, MIC90 and the like: level of inhibition, or share of isolates inhibited.

structure,setting,strain or isolate,endpoint,method,value
C[C@@H]1[C@H](O)[C@@H](C)/C=C/C=C/CC/C=C/C=C/C=C/C=C/C(O[C@H]2O[C@H](C)[C@@H](O)[C@H](N)[C@@H]2O)CC2O[C@](O)(CC(O)C(O)CCC(O)CC(O)CC(O)CC(=O)O[C@H]1C)CC(O)C2C(=O)O,-,ATCC 40147,MIC100,broth dilution,64 µg/mL
O=[N+]([O-])c1ccc(C[Se]c2nnnn2C2CCCCC2)c([N+](=O)[O-])c1,24 h,E28,EC80,broth dilution,>500 µM
C[C@@H]1[C@H](O)[C@@H](C)/C=C/C=C/CC/C=C/C=C/C=C/C=C/C(O[C@H]2O[C@H](C)[C@@H](O)[C@H](N)[C@@H]2O)CC2O[C@](O)(CC(O)C(O)CCC(O)CC(O)CC(O)CC(=O)O[C@H]1C)CC(O)C2C(=O)O,-,ATCC 40147,MIC100,broth dilution,>1024 µg/mL
C[C@@H](c1ncncc1F)[C@](O)(Cn1cncn1)c1ccc(F)cc1F,-,17 isolates,MIC90,-,1 µg/mL
O=C(O)c1ccccc1,-,PYCC 3341,EC50,-,0.71 µM
Cc1cccc(O)c1,-,-,MIC,broth dilution,850 µg/mL
CCCCCCCCOc1ccc(-c2ccc(C(=O)NC3CC(NCCN)CNC(=O)[C@@H]4[C@@H](O)[C@@H](C)CN4C(=O)[C@@H](CO)NC(=O)[C@H]([C@H](O)Cc4ccccc4)NC(=O)[C@@H]4C[C@@H](O)CN4C(=O)[C@H]([C@@H](C)O)NC3=O)cc2)cc1,-,ATCC 6258,MIC,resazurin,5 µg/mL
C/C=C/c1ccc(O)c(OC)c1,-,-,MIC,broth dilution,220 µg/mL
C=CCSS(=O)CC=C,-,-,MIC,broth dilution,80 µg/mL
C[C@H](Cc1ccc(O)c(O)c1)[C@@H](C)Cc1ccc(O)c(O)c1,-,CCC 117-2000,MIC50,broth dilution,250 µg/mL
C[C@@H]1[C@H](O)[C@@H](C)/C=C/C=C/CC/C=C/C=C/C=C/C=C/C(O[C@H]2O[C@H](C)[C@@H](O)[C@H](N)[C@@H]2O)CC2O[C@](O)(CC(O)C(O)CCC(O)CC(O)CC(O)CC(=O)O[C@H]1C)CC(O)C2C(=O)O,-,CBS 573,MIC,broth dilution,3.9 µg/mL
C=CCc1ccc(OC)cc1,-,-,MIC90,-,0.016–0.025 µg/mL
O=C(O)/C=C/c1ccccc1,-,PYCC 3341,EC50,broth dilution / turbidity,0.29 µM
O=[N+]([O-])c1cc(C[Se]c2nnnn2C2CCCCC2)cc([N+](=O)[O-])c1,48 h,E28,EC80,broth dilution,>500 µM
C=CCc1ccc(O)c(-c2cc(CC=C)ccc2O)c1,-,-,MIC,broth dilution,10 µg/mL
c1ccc([Se][Se]c2ccccc2)cc1,-,ATCC 6258,MIC,broth dilution,32 µg/mL
O=[N+]([O-])c1cc(CSc2cccc[n+]2[O-])cc([N+](=O)[O-])c1,24 h,E28,EC80,broth dilution,>500 µM
COc1cc(O)c2c(c1)OC(c1ccc(O)cc1)CC2=O,clinical isolate,Clinical isolate,MIC,broth dilution,630 µg/mL
O=C(O)c1cccc(-n2nnnc2SCc2cc([N+](=O)[O-])cc([N+](=O)[O-])c2)c1,24 h,E28,EC80,broth dilution,>500 µM
Cc1ccc(O)cc1,-,-,MIC,broth dilution,880 µg/mL
COc1cc2oc(=O)ccc2cc1CC(O)C(C)(C)O,-,-,MIC,-,125 µg/mL
CCC(C)n1ncn(-c2ccc(N3CCN(c4ccc(OC[C@H]5CO[C@](Cn6cncn6)(c6ccc(Cl)cc6Cl)O5)cc4)CC3)cc2)c1=O,-,17 isolates,MIC90,-,2 µg/mL
COc1cc(C=O)ccc1O,-,-,MIC,broth dilution,260 µg/mL
O=Cc1cc(O)ccc1O,-,PYCC 3341,EC50,broth dilution / turbidity,0.82 µM

Repeating the first 4 entries:

| structure | setting | strain or isolate | endpoint | method | value |
|---|---|---|---|---|---|
| C[C@@H]1[C@H](O)[C@@H](C)/C=C/C=C/CC/C=C/C=C/C=C/C=C/C(O[C@H]2O[C@H](C)[C@@H](O)[C@H](N)[C@@H]2O)CC2O[C@](O)(CC(O)C(O)CCC(O)CC(O)CC(O)CC(=O)O[C@H]1C)CC(O)C2C(=O)O | - | ATCC 40147 | MIC100 | broth dilution | 64 µg/mL |
| O=[N+]([O-])c1ccc(C[Se]c2nnnn2C2CCCCC2)c([N+](=O)[O-])c1 | 24 h | E28 | EC80 | broth dilution | >500 µM |
| C[C@@H]1[C@H](O)[C@@H](C)/C=C/C=C/CC/C=C/C=C/C=C/C=C/C(O[C@H]2O[C@H](C)[C@@H](O)[C@H](N)[C@@H]2O)CC2O[C@](O)(CC(O)C(O)CCC(O)CC(O)CC(O)CC(=O)O[C@H]1C)CC(O)C2C(=O)O | - | ATCC 40147 | MIC100 | broth dilution | >1024 µg/mL |
| C[C@@H](c1ncncc1F)[C@](O)(Cn1cncn1)c1ccc(F)cc1F | - | 17 isolates | MIC90 | - | 1 µg/mL |